Experimental data taken from PubChem BioAssay AID602405 (Broad Institute, 2012).
The list shows a part of the results, in another mix than the full data. Calls of active or inactive are those of the source. Cut-off read from the data, not from the text of the source: active = inhibition above about 16% (passing the limit was not always enough); inconclusive = no clear call, values can overlap the other calls; inactive = below that.

Each compound was assayed on UDP-N-acetylbacillosamine N-acetyltransferase PglD (Campylobacter jejuni) (assay: blockers of PglD enzyme activity – biochemical, DTNB colorimetric, single point, primary screen (AID 602405)). Conditions: purified PglD enzyme, DTNB colorimetric CoA detection; at 12.5 µM; stronger effect = higher value.
With `CCC(CO)(C(=O)OC1CN2CCC1CC2)c1ccccc1` (stereo not drawn) the inhibition was inactive: -2.9%.
In the case of `COc1cccc(C(c2nnnn2C2CCCC2)N2CCC(n3c(=O)[nH]c4ccccc43)CC2)c1OC` (stereo not drawn), the inhibition is reported as inactive: 2.12%.
`COc1cc(OC)cc(C(=O)NCC2(N3CCOCC3)CCCCC2)c1` was tested, and the inhibition was inactive: 0.934%.
For `COc1cccc(C(=O)N(c2cc(C)cc(C)c2)C2CCN(C(=O)OC(C)(C)C)CC2)c1`, the inhibition was inactive: 3.88%.
In the case of `CN1CCC(Nc2ccc(Cl)cc2)CC1`, the inhibition is reported as inactive: 1.46%.
For `CN1CCC(Nc2ccc(F)c(Cl)c2)CC1`, the inhibition was inactive: -11.3%.
With `CCOc1ncccc1C(=O)NCC1(N2CCOCC2)CCCCC1` the inhibition was inactive: -5.28%.
With `O=c1[nH]c2ccccc2n1C1CCN(C(c2cc3ccccc3o2)c2nnnn2C2CCCC2)CC1` (stereo not drawn) the inhibition was inactive: 3.3%.
`CCCOc1ccc(C(=O)NCC2(N(C)C)CCCCC2)cc1` was tested, and the inhibition was inactive: 2.45%.
In the case of `O=C(O)C1(Nc2ccccc2)CCN(Cc2ccccc2)CC1`, the inhibition is reported as inactive: -5.9%.
With `COc1ccc(C(c2nnnn2C2CCCCC2)N2CCC(n3c(=O)[nH]c4ccccc43)CC2)cc1` (stereo not drawn) the inhibition was inactive: 2.92%.
In the case of `CC(C)(C)n1nnnc1C(c1ccnc2ccccc12)N1CCC(n2c(=O)[nH]c3ccccc32)CC1` (stereo not drawn), the inhibition is reported as inactive: 1.47%.
`Cc1ccccc1NC1(C#N)CCN(Cc2ccccc2)CC1` was tested, and the inhibition was inactive: -0.13%.
`Cn1c(=O)[nH]cc(N(CCCl)CCCl)c1=O` was tested, and the inhibition was inactive: 2.71%.
`O=C(NCC1(N2CCCCC2)CCCCC1)c1ccco1` was tested, and the inhibition was inactive: 2.43%.
In the case of `COc1cc(OC)cc(C(=O)NCC2(N3CCCCC3)CCCCC2)c1`, the inhibition is reported as inactive: -0.534%.
In the case of `O=c1[nH]c2ccccc2n1C1CCN(C(c2ccnc3ccccc23)c2nnnn2C2CCCCC2)CC1` (stereo not drawn), the inhibition is reported as inactive: -4.61%.
With `CCC(c1nnnn1C1CCCCC1)N1CCC(n2c(=O)[nH]c3ccccc32)CC1` (stereo not drawn) the inhibition was inactive: 0.588%.
For `COc1cccc(C(c2nnnn2C2CCCCC2)N2CCC(n3c(=O)[nH]c4ccccc43)CC2)c1OC` (stereo not drawn), the inhibition was inactive: -0.975%.
`CC(=O)N(c1ccccc1)C1CCNCC1` was tested, and the inhibition was inactive: 4.95%.
For `Cc1ccc(NC2(C#N)CCN(Cc3ccccc3)CC2)cc1`, the inhibition was inactive: -0.206%.
For `Fc1ccccc1NC1CCN(Cc2ccccc2)CC1`, the inhibition was inactive: -1.17%.
With `Cc1ccc(C(=O)NCC2(N3CCCCC3)CCCCC2)o1` the inhibition was inactive: 6.52%.
For `O=c1[nH]c2ccccc2n1C1CCN(C(c2ccccc2)c2nnnn2C2CCCC2)CC1` (stereo not drawn), the inhibition was inactive: 1.33%.
With `CCCN1CCC(Nc2cc(OC)cc(OC)c2)CC1` the inhibition was inactive: -14.6%.
For `c1ccc(CN2CCC(Nc3ccccc3)CC2)cc1`, the inhibition was inactive: 0.513%.
`CN(C)C1(CNC(=O)c2cccc(C#N)c2)CCCCC1` was tested, and the inhibition was inactive: -2.87%.
In the case of `CC(C)(C)n1nnnc1C(c1cccc2ccccc12)N1CCC(n2c(=O)[nH]c3ccccc32)CC1` (stereo not drawn), the inhibition is reported as inactive: 5.07%.
In the case of `CC(C)(C)OC(=O)N1CCC(N(C(=O)c2ccccc2)c2ccc(Cl)cc2)CC1`, the inhibition is reported as inactive: 4.63%.
For `N#Cc1ccc(C(=O)NCC2(N3CCCCC3)CCCCC2)cc1`, the inhibition was inactive: -6.66%.
With `N/C(=N\O)c1c(N)no[n+]1[O-]` the inhibition was inactive: 0.725%.
In the case of `CCOC(=O)N1CCC(Nc2ccc(C)cc2)CC1`, the inhibition is reported as inactive: -0.287%.
For `COc1cccc(C(c2nnnn2C(C)(C)C)N2CCC(n3c(=O)[nH]c4ccccc43)CC2)c1OC` (stereo not drawn), the inhibition was inactive: -1.75%.
`CCCCn1nnnc1C(c1cccc(OC)c1OC)N1CCC(n2c(=O)[nH]c3ccccc32)CC1` (stereo not drawn) was tested, and the inhibition was inactive: -1.62%.
In the case of `O=c1[nH]c2ccccc2n1C1CCN(C(c2cccs2)c2nnnn2C2CCCC2)CC1` (stereo not drawn), the inhibition is reported as inactive: 0.524%.
`O=C(NCC1(N2CCOCC2)CCCCC1)c1cc(Br)ccc1Cl` was tested, and the inhibition was inactive: 3.26%.
With `COc1cc(C(=O)NCC2(N3CCOCC3)CCCCC2)cc(OC)c1C` the inhibition was inactive: -7.22%.
`CCCCn1nnnc1C(c1ccccc1)N1CCC(n2c(=O)[nH]c3ccccc32)CC1` (stereo not drawn) was tested, and the inhibition was inactive: 5.86%.
For `O=c1[nH]c2ccccc2n1C1CCN(C(c2ccnc3ccccc23)c2nnnn2C2CCCC2)CC1` (stereo not drawn), the inhibition was inactive: 5.18%.
For `O=c1[nH]c2ccccc2n1C1CCN(C(c2cccs2)c2nnnn2C2CCCCC2)CC1` (stereo not drawn), the inhibition was inactive: 1.19%.
In the case of `CN1CCC(Nc2cccc(F)c2)CC1`, the inhibition is reported as inactive: -1.09%.
`O=C(NCC1(N2CCCCC2)CCCCC1)c1cncc(Br)c1` was tested, and the inhibition was inactive: 2.19%.
With `CCCOc1ccc(C(=O)NCC2(N(C)C)CCCCC2)cc1OC` the inhibition was inactive: 4.32%.
For `Cc1ccc(C(=O)NCC2(N(C)C)CCCCC2)o1`, the inhibition was inactive: 1.55%.
With `COc1ccc(C(c2nnnn2C2CCCC2)N2CCC(n3c(=O)[nH]c4ccccc43)CC2)cc1` (stereo not drawn) the inhibition was inactive: -4.02%.
`CN(C)c1cccc(C(=O)NCC2(N3CCCCC3)CCCCC2)c1` was tested, and the inhibition was inactive: 0.417%.
With `CCCCn1nnnc1C(c1ccccc1OC(F)(F)F)N1CCC(n2c(=O)[nH]c3ccccc32)CC1` (stereo not drawn) the inhibition was inactive: 4.94%.
For `CCCCn1nnnc1C(c1ccnc2ccccc12)N1CCC(n2c(=O)[nH]c3ccccc32)CC1` (stereo not drawn), the inhibition was inactive: 4.48%.
For `O=C(NCC1(N2CCOCC2)CCCCC1)c1cc(F)c(F)cc1Cl`, the inhibition was inactive: -0.175%.
For `CCC(c1nnnn1C(C)(C)C)N1CCC(n2c(=O)[nH]c3ccccc32)CC1` (stereo not drawn), the inhibition was inactive: 0.325%.
In the case of `COc1cc(OC)c(C(=O)NCC2(N(C)C)CCCCC2)cc1OC`, the inhibition is reported as inactive: -1.04%.
In the case of `O=C(NCC1(N2CCCCC2)CCCCC1)c1cccc(C(F)(F)F)c1`, the inhibition is reported as inactive: 0.291%.
With `CN1CCN(CCOC(=O)C(O)(c2ccccc2)c2ccccc2)CC1` the inhibition was inactive: 4.38%.
For `CCCCn1nnnc1C(c1cccc2ccccc12)N1CCC(n2c(=O)[nH]c3ccccc32)CC1` (stereo not drawn), the inhibition was inactive: -5.89%.
`COc1cc(C(=O)NCC2(N3CCCCC3)CCCCC2)ccc1OC(F)F` was tested, and the inhibition was inactive: 9.12%.
`O=C(NCC1(N2CCOCC2)CCCCC1)c1cc(=O)[nH]c2ccccc12` was tested, and the inhibition was inactive: -0.875%.
In the case of `O=C(NCC1(N2CCCCC2)CCCCC1)c1ccc(OC(F)F)cc1`, the inhibition is reported as inactive: 3.27%.
In the case of `CC(C)(C)n1nnnc1C(c1ccccc1OC(F)(F)F)N1CCC(n2c(=O)[nH]c3ccccc32)CC1` (stereo not drawn), the inhibition is reported as inactive: 3.9%.
